According to patent publication US20090104178A1:

Biological target: hCL1 (Homo sapiens)

Substance: Purified recombinant full-length VaV CrmB protein
- Kd: 28.8 nM
